Source: PMC10150359 (Journal of Medicinal Chemistry, 2023)

Experiments:
[1] = system: EBOV-GP-Pseudotype Virus (pEBOV); details: CC50 HeLa / EC50 pEBOV
[2] = system: wild-type Zaire EBOV Mayinga 1976 strain (EBOV May); experiment: Antiviral activity against replicative EBOV in Vero E6 cells (immunofocus assay)

Compound | SI (pEBOV) (CC50/EC50) [1] | SI (CC50/EC50), replicative EBOV [2]
O=C(CCNCCC1CCN(Cc2ccccc2)CC1)NN(c1ccccc1)c1ccccc1 [Compound 11, 3-((2-(1-Benzylpiperidin-4-yl)ethyl)amino)-N′,N′-diphenylpropanehydrazide] | 115 | 31.5
O=C(CCNCCN1CCN(Cc2ccccc2)CC1)NN(c1ccccc1)c1ccccc1 [Compound 13, 3-((2-(4-Benzylpiperazin-1-yl)ethyl)amino)-N′,N′-diphenylpropanehydrazide] | 274 | 13.1
